Experimental findings from article PMC7794844 (Molecules, 2020) are described below.

The target in the experiment is SARS-CoV-2 spike S-RBD protein (Severe acute respiratory syndrome coronavirus 2, UniProt P0DTC2). Nature of the experiment: SPR affinity screen, compounds over immobilized S-RBD-mFc (CM5 chip). Conditions: target S-RBD, 1:1 binding model for steady state affinity.

One may read the Kd as the constant that tells how readily two partners part at equilibrium. For `c1ccc2c(CCNc3ccc(Nc4ccncc4)cc3)c[nH]c2c1`, the Kd came to 8.37 µM.
